Laboratory results reported in PMC9338942, “(+)-Usnic acid and its salts, inhibitors of SARS‐CoV‐2, identified by using in silico methods and in vitro assay” (Scientific Reports, 2022).
The index is printed as in the source, without its formula.

System: SARS-CoV-2 (βCoV/Korea/KCDC/2020)
Assay type: cell-based
Conditions: original SARS-CoV-2 strain

## CC(=O)C1=C(O)[C@]2(C)C(=CC1=O)Oc1c(C(C)=O)c([O-])c(C)c([O-])c12.[K+].[K+] [KU, potassium usnate]
  SI (selectivity index): 6.60

## CC(=O)C1=C([O-])C=C2Oc3c(C(C)=O)c(O)c(C)c(O)c3[C@]2(C)C1=O.[Na+] [NaU, sodium usnate]
  SI (selectivity index): 9.38
